In publication PMC4125234, “Improving the Anti-Toxin Abilities of the CMG2-Fc Fusion Protein with the Aid of Computational Design” (2014) one finds Kd, koff and kon data, which are given here for one substance.

The target of one experiment is CMG2-Fc (E117Q) (human) (UniProt P58335). Description: BLI.
The next experiment deals with CMG2-Fc (Y158Q) (human) (UniProt P58335). As to the kind of experiment: BLI.

In the experiment with CMG2-Fc (E117Q) (human), “protective antigen (PA) of anthrax toxin (natural protein)” displayed a Kd of 0.2 nM, a koff of 3.93e-06 s⁻¹ and an on-rate (kon) of 19400 M⁻¹ s⁻¹. In the experiment with CMG2-Fc (Y158Q) (human), this substance came in with a dissociation constant Kd of 0.76 nM, a koff of 8.47e-06 s⁻¹ and a kon of 11100 M⁻¹ s⁻¹.
